Test: Sensing test of smell (thirteen examiners)
Conditions: average score of thirteen examiners; for Smell magnitude indication: scale 0 not sensed to 5 extremely strongly sensed, control IF-1000 score set as 5; for Pleasant/unpleasant smell indication: scale +3 pleasant to -3 unpleasant, control IF-1000 score set as -3

| SMILES | Smell magnitude indication | Pleasant/unpleasant smell indication |
| --- | --- | --- |
| CCOc1ccc(OCOCC#CI)cc1 [Derivative III-b, 1-Ethoxy-4-[[(3-iodo-2-propynyl)oxy]methoxy]benzene] | 1.1 | -0.1 |
| N#Cc1ccc(OCOCC#CI)cc1 [Derivative III-i, 1-Cyano-4-[[(3-iodo-2-propynyl)oxy]methoxy]benzene] | 2.0 | -0.8 |
| COc1ccccc1OC(C)OCC#CI (centres unmarked) [Derivative III-g, 1-[1-[(3-Iodo-2-propynyl)oxy]ethoxy]-2-methoxybenzene] | 2.9 | -0.2 |
| COc1ccc(OCOCC#CI)cc1 [Derivative III-a, 1-[[(3-Iodo-2-propynyl)oxy]methoxy]-4-methoxybenzene] | 1.5 | -0.5 |
| COc1ccc(OC(C)OCC#CI)cc1 (centres unmarked) [Derivative III-e, 1-[1-[(3-Iodo-2-propynyl)oxy]ethoxy]-4-methoxybenzene] | 1.2 | -0.3 |
| CCOc1ccccc1OC(C)OCC#CI (centres unmarked) [Derivative III-h, 1-Ethoxy-2-[1-[(3-iodo-2-propynyl)oxy]ethoxy]benzene] | 2.9 | -1.2 |
| CCOc1ccccc1OCOCC#CI [Derivative III-d, 1-Ethoxy-2-[[(3-iodo-2-propynyl)oxy]methoxy]benzene] | 1.1 | -0.2 |
| CCOc1ccc(OC(C)OCC#CI)cc1 (centres unmarked) [Derivative III-f, 1-Ethoxy-4-[1-[(3-Iodo-2-propynyl)oxy]ethoxy]benzene] | 2.8 | -0.6 |
| COc1ccccc1OCOCC#CI [Derivative III-c, 1-[[(3-Iodo-2-propynyl)oxy]methoxy]-2-methoxybenzene] | 1.0 | +0.2 |
| Clc1ccc(OCOCC#CI)cc1 [IF-1000, 1-Chloro-4-[[(3-iodo-2-propynyl)oxy]methoxy]benzene, reference compound] | 5 | -3 |

From patent publication US6143311A, “Iodopropargyl derivatives and antimicrobial agents comprising them as an active ingredient” (Nagase & Company, Ltd., priority 1997, dated 2000)
